## Zika virus NS2B-NS3: effect of single substitutions on growth in cell culture

Reference: Ni et al. 2025, doi:10.1038/s41467-025-63602-z.

The scanned region of Zika virus MR766 is shown below (positions 1-308): NS2B is 2-131, NS3 begins at position 132.
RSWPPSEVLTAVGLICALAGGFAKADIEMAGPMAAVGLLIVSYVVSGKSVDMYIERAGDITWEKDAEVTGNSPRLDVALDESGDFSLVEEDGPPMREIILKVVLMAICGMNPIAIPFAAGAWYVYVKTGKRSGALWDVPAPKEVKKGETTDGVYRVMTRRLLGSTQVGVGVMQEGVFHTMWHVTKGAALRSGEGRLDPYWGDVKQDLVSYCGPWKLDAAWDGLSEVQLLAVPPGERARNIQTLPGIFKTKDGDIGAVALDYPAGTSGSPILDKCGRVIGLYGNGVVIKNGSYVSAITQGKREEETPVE

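Libraries of single mutants were passaged as virus pools on Huh-7.5 cells. Deep sequencing gave the change in frequency of each mutant relative to wild type, averaged over three replicate libraries (two for positions 207-308).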

The number is log2 of the effect relative to wild type; negative values mean reduced growth, higher values better tolerance.
Substitutions are written as wild-type residue, site number, new residue.
All changes here are to lysine.

For P73K the result was -5.67.
For R74K the result was -0.72.
For L75K the result was -6.50.
For D76K the result was -1.43.
For V77K the result was -6.43.
For A78K the result was 0.43.
For L79K the result was -6.44.
For D80K the result was -5.71.
For E81K the result was -4.85.
For S82K the result was -6.70.
For G83K the result was -6.23.
For D84K the result was -5.98.
For F85K the result was -5.84.
For S86K the result was -3.59.
For L87K the result was -7.08.
For V88K the result was -5.02.
For E89K the result was -3.52.
For E90K the result was -3.61.
For D91K the result was -5.60.
For G92K the result was -4.47.
For P93K the result was -5.82.
For P94K the result was -4.58.
For M95K the result was -2.55.
For R96K the result was -0.33.
For E97K the result was -5.82.
For I98K the result was -6.12.
For I99K the result was -5.62.
For L100K the result was -5.48.
For V102K the result was -6.50.
For V103K the result was -4.85.
For L104K the result was -6.59.
For M105K the result was -6.83.
For A106K the result was -5.22.
For I107K the result was -5.36.
For C108K the result was -5.62.

The opening 4 entries, copied out:

mutation,log2 growth effect
P73K,-5.67
R74K,-0.72
L75K,-6.50
D76K,-1.43

Positions 1-103, 104-206 and 207-308 were made and measured as separate libraries.
Six mutants with high scores were retested singly and none clearly outgrew wild type, so positive values are not proof of better growth.
Position 1 still belongs to NS2A. In the paper, -1 or higher counts as tolerated.